Compound potency records, mixed from different reports. Data source: NIAID ChemDB in PubChem.

Common to all: whole-cell or culture tests

Lines come from different laboratories, so protocols vary. A number after MIC or MFC names an inhibition level or a share of isolates. Zones are inhibition diameters on agar. a–b is a range or a potency band. Blank or dashed fields: not listed here. Inhibition is in % at the dose shown (toxicity tests: loss of growth or viability).

compound	organism	strain	mutations	method	setting	measure	tested at	value
O=C1S/C(=C\c2ccc(Cl)cc2)C(=O)N1CC(O)(Cn1nccn1)c1ccc(F)cc1F	Aspergillus glaucus					MIC		>100 µg/mL
Cc1cccc(C=NNC(N)=S)n1	Aspergillus parasiticus	MCT 00334		broth dilution		inhibition	500 µg/mL	100%
O=c1cc(CO)occ1O	Aspergillus terreus	UAB698		agar		MIC99		>12800 µM
CC1=C2C[C@@H]3[C@](C)(CCC[C@@]3(C)O)C[C@]2(O)OC1=O	Aspergillus spp.	ATCC 293		broth dilution		MIC		>256 µg/mL
C[C@H]1[C@H](O)[C@@H](C)/C=C/C=C/C=C/C=C/C=C/C=C/C=C/[C@H](O[C@@H]2O[C@H](C)[C@@H](O)[C@H](N)[C@@H]2O)C[C@@H]2O[C@](O)(C[C@@H](O)C[C@@H](O)CC[C@H](O)[C@@H](O)C[C@@H](O)CC(=O)O[C@H]1C)C[C@H](O)[C@H]2C(=O)O	Aspergillus terreus	ATCC 10690		broth dilution	48 h	MIC100		2 µg/mL
CC(=O)N1CCN(c2ccc(OC[C@H]3CO[C@](Cn4ccnc4)(c4ccc(Cl)cc4Cl)O3)cc2)CC1	Aspergillus versicolor	ATCC 11730		broth dilution		MFC		500 µg/mL
Cc1ccc(S(=O)(=O)CNc2oc3[nH]c(=O)[nH]c(=O)c3c2-c2ccc(O)cc2)cc1	Aspergillus oryzae			agar diffusion / agar		zone	100 µg/mL	25 mm
COc1ccc(C(c2ccc(OC)cc2)n2cncn2)cc1	Aspergillus flavus			broth dilution		MFC		>256 µg/mL
c1ccc(C2=NN(c3ccccc3)C(c3ccc(OCCCCOc4ccc(C5CC(c6ccccc6)=NN5c5ccccc5)cc4)cc3)C2)cc1	Aspergillus janus			broth dilution		MIC		16 µg/mL
CCC(C)n1ncn(-c2ccc(N3CCN(c4ccc(OC[C@H]5CO[C@](Cn6cncn6)(c6ccc(Cl)cc6Cl)O5)cc4)CC3)cc2)c1=O	Aspergillus flavus			broth dilution		MIC50		0.25 µg/mL
Cc1nc(NC(=O)c2ccc(F)cc2)sc1C(=O)N/N=C1/S/C(=C/c2ccccc2Cl)C(=O)N1c1ccccc1	Aspergillus clavatus	MTCC 1323				MIC50		250 µg/mL
CO[C@@]12OC(=O)C(C)=C1C1=C3[C@](C)([C@@H]4C[C@@H]4[C@@]3(O)C[C@@H]3[C@]14OC(=O)C1=C4C[C@H]4[C@](O)(COC(=O)/C(C)=C/COC(=O)CCC(=O)OC1)[C@H]1C[C@H]1[C@]34C)[C@H]2O	Aspergillus spp.	ATCC 293		broth dilution		MIC		>256 µg/mL
N#Cc1ccc(Nc2nc(Oc3cccc4cccnc34)nc(N3CCN(c4ncccn4)CC3)n2)cc1C(F)(F)F	Aspergillus nidulans	MTCC 282		agar diffusion / agar		zone	100 µg/disc	24 mm
CCC(C)CC(C)CCCCCCCCC(=O)N[C@H]1C[C@@H](O)[C@H](NCCN)NC(=O)[C@@H]2[C@@H](O)CCN2C(=O)[C@H]([C@H](O)CCN)NC(=O)[C@H]([C@H](O)[C@@H](O)c2ccc(O)cc2)NC(=O)[C@@H]2C[C@@H](O)CN2C(=O)[C@H]([C@@H](C)O)NC1=O	Aspergillus terreus	ND125		broth dilution		MIC		0.06 µg/mL
CC(=O)N1CCN(c2ccc(OC[C@H]3CO[C@](Cn4ccnc4)(c4ccc(Cl)cc4Cl)O3)cc2)CC1	Aspergillus versicolor	Species complex				MIC90		1 µg/mL
O=C(NN1C(=O)CSC1C1C(c2ccccc2)=Nc2ccccc21)N1c2ccccc2C=Cc2ccccc21	Aspergillus oryzae	MTCC-3567		agar diffusion		zone	750 µg/mL	12 mm
CC(C)CC(O)C(=O)O	Aspergillus terreus	MRCM 26158		broth dilution / visual reading		MFC100		18000 µg/mL
O=C(/C=C/c1ccc(OCCCCCCCCOc2ccc(/C=C/C(=O)c3ccccc3)cc2)cc1)c1ccccc1	Aspergillus janus			broth dilution		MIC		16 µg/mL
Cc1cc(O)c2c(c1)C(=O)c1cc(O)c(O)c(O)c1C2=O	Aspergillus nidulans			visual reading		MIC100		142–284 µM
COc1cc(/C=C/C(C)=O)ccc1O	Aspergillus oryzae	MTCC 262		broth dilution		MFC		1041 µM
CC1=C2C3=C4[C@](C)([C@@H]5C[C@@H]5[C@@]4(O)C[C@@H]4[C@]35OC(=O)C3=C5C[C@H]5[C@](O)(COC(=O)/C(C)=C/COC(=O)CCC(=O)OC3)[C@H]3C[C@H]3[C@]45C)[C@@H](O)[C@]2(O)OC1=O	Aspergillus spp.	ATCC 293		broth dilution		MIC		>256 µg/mL
O=c1c(N2CCOCC2)c(N2CCN(S(=O)(=O)Cc3ccccc3)CC2)cnn1-c1ccccc1	Aspergillus terreus	ND125		broth dilution		MIC		25 µg/mL
O=C(c1ccccc1)C(c1ccccc1)n1cnc2ccccc21	Aspergillus flavus			broth dilution		MFC		128 µg/mL
Cc1nc(NC(=O)c2ccc(F)cc2)sc1C(=O)N/N=C1/S/C(=C/c2ccc(O)cc2)C(=O)N1c1ccccc1	Aspergillus clavatus	MTCC 1323				MIC50		250 µg/mL
c1ccc(C2=NN(c3ccccc3)C(c3ccc(OCCCOc4ccc(C5CC(c6ccccc6)=NN5c5ccccc5)cc4)cc3)C2)cc1	Aspergillus janus			broth dilution		MIC		8 µg/mL
N#Cc1ccc(/C=C2\SC(=O)N(CC(O)(Cn3nccn3)c3ccc(F)cc3F)C2=O)cc1	Aspergillus glaucus					MIC		>100 µg/mL
CCC(C)CC(C)CCCCCCCCC(=O)N[C@H]1C[C@@H](O)[C@H](NCCN)NC(=O)[C@@H]2[C@@H](O)CCN2C(=O)[C@H]([C@H](O)CCN)NC(=O)[C@H]([C@H](O)[C@@H](O)c2ccc(O)cc2)NC(=O)[C@@H]2C[C@@H](O)CN2C(=O)[C@H]([C@@H](C)O)NC1=O	Aspergillus terreus	11		broth dilution		MIC		128 µg/mL
CCC(C)n1ncn(-c2ccc(N3CCN(c4ccc(OC[C@H]5CO[C@](Cn6cncn6)(c6ccc(Cl)cc6Cl)O5)cc4)CC3)cc2)c1=O	Aspergillus fumigatus	AF293	sakA	broth dilution		inhibition	4 µg/mL	99.89%
O=C(NN=CC1C(c2ccccc2)=Nc2ccc(Cl)cc21)N1c2ccccc2C=Cc2ccccc21	Aspergillus terreus	MTCC-1782		agar diffusion		zone	500 µg/mL	9 mm
c1ccc(C2=NN(c3ccccc3)C(c3ccc(OCCCCCCCCCCCCOc4ccc(C5CC(c6ccccc6)=NN5c5ccccc5)cc4)cc3)C2)cc1	Aspergillus janus			broth dilution		MIC		16 µg/mL
Clc1ccc(C(c2ccccc2)n2cncn2)cc1	Aspergillus flavus			broth dilution		MFC		256 µg/mL
O=C1S/C(=C\c2ccncc2)C(=O)N1CC(O)(Cn1nccn1)c1ccc(F)cc1F	Aspergillus glaucus					MIC		>100 µg/mL
COc1ccc(C(c2ccc(OC)cc2)n2ccnc2)cc1	Aspergillus flavus			broth dilution		MFC		>256 µg/mL
O=C1S/C(=C\c2ccc(F)cc2)C(=O)N1CC(O)(Cn1nccn1)c1ccc(F)cc1F	Aspergillus glaucus					MIC		>100 µg/mL
CCCCCCCCOC(=O)[C@]1(O)C[C@@H](O)[C@@H](O)[C@H](OC(=O)/C=C/c2ccc(O)c(O)c2)C1	Aspergillus nomius	SLV 549		absorbance		MIC50		1600 µM
CC(C)C[C@H](N)C(=O)O	Aspergillus fumigatus	MRCM 24290		broth dilution		MFC100		>18000 µg/mL
O=C(/C=C/c1ccc(OCCCCCOc2ccc(/C=C/C(=O)c3ccccc3)cc2)cc1)c1ccccc1	Aspergillus janus			broth dilution		MIC		8 µg/mL
Nc1ncccc1-c1cc(Cc2ccc(COc3ccccn3)cc2)no1	Aspergillus nidulans			broth dilution		MIC50		0.06 µg/mL
NC(=S)NN=Cc1cccs1	Aspergillus nomius	MCT 00328		broth dilution		MIC		125 µg/mL
C[C@@H](c1nc(-c2ccc(C#N)cc2)cs1)[C@](O)(Cn1cncn1)c1cc(F)ccc1F	Aspergillus lentulus			broth dilution		MIC50		0.25 µg/mL
Cc1ccc2c(c1)C(C=NNC(=O)N1c3ccccc3C=Cc3ccccc31)C(c1ccccc1)=N2	Aspergillus oryzae	MTCC-3567		agar diffusion		zone	1000 µg/mL	14 mm
Cc1nc(NC(=O)c2ccc(F)cc2)sc1C(=O)N/N=C1/S/C(=C/c2ccccc2[N+](=O)[O-])C(=O)N1c1ccccc1	Aspergillus clavatus	MTCC 1323				MIC50		1000 µg/mL
COC(=O)/C(C)=C1\C(=O)[C@H](O)[C@]2(C)C3=C(C[C@@H]4[C@]5(OC(=O)C6=C5C[C@H]5[C@](O)(COC(=O)/C(C)=C/COC(=O)CCC(=O)OC6)[C@H]6C[C@H]6[C@]45C)[C@H]31)[C@H]1C[C@H]12	Aspergillus spp.	ATCC 293		broth dilution		MIC		8 µg/mL
CCCCCOc1ccc(-c2ccc(-c3ccc(C(=O)N[C@H]4C[C@@H](O)[C@@H](O)NC(=O)[C@@H]5[C@@H](O)[C@@H](C)CN5C(=O)[C@H]([C@H](C)O)NC(=O)[C@H]([C@H](O)[C@@H](O)c5ccc(O)cc5)NC(=O)[C@@H]5C[C@@H](O)CN5C(=O)[C@H]([C@H](C)O)NC4=O)cc3)cc2)cc1	Aspergillus fumigatus	94-46				MFC		>50 µg/mL
C[C@H]1[C@H](O)[C@@H](C)/C=C/C=C/C=C/C=C/C=C/C=C/C=C/[C@H](O[C@@H]2O[C@H](C)[C@@H](O)[C@H](N)[C@@H]2O)C[C@@H]2O[C@](O)(C[C@@H](O)C[C@@H](O)CC[C@H](O)[C@@H](O)C[C@@H](O)CC(=O)O[C@H]1C)C[C@H](O)[C@H]2C(=O)O	Aspergillus fumigatus	Isolate AF210				MFC		8 µg/mL
Cc1ccc(S(=O)(=O)CNc2oc3[nH]c(=O)[nH]c(=O)c3c2-c2ccc(Cl)cc2)cc1	Aspergillus oryzae			agar diffusion / agar		zone	100 µg/mL	20 mm
COc1ccc(/C=C2/S/C(=N/NC(=O)c3sc(NC(=O)c4ccc(F)cc4)nc3C)N(c3ccccc3)C2=O)cc1	Aspergillus clavatus	MTCC 1323				MIC50		100 µg/mL
Cc1ccc(C(C)C)cc1	Aspergillus fumigatus	F05				MLC		>20 µg/mL
O=C1S/C(=C\c2ccc3ccccc3n2)C(=O)N1CC(O)(Cn1nccn1)c1ccc(F)cc1F	Aspergillus glaucus					MIC		>100 µg/mL
c1ccc(C2=NN(c3ccccc3)C(c3ccc(OCCCCCOc4ccc(C5CN(c6ccccc6)N=C5c5ccccc5)cc4)cc3)C2)cc1	Aspergillus janus			broth dilution		MIC		8 µg/mL
Cc1ccc(S(=O)(=O)CNc2oc3[nH]c(=O)[nH]c(=O)c3c2-c2ccc(F)cc2)cc1	Aspergillus oryzae			agar diffusion / agar		zone	50 µg/mL	18 mm

Repeating the final 6 entries:

{"compound": "Cc1ccc(S(=O)(=O)CNc2oc3[nH]c(=O)[nH]c(=O)c3c2-c2ccc(Cl)cc2)cc1", "organism": "Aspergillus oryzae", "method": "agar diffusion / agar", "measure": "zone", "tested at": "100 µg/mL", "value": "20 mm"}
{"compound": "COc1ccc(/C=C2/S/C(=N/NC(=O)c3sc(NC(=O)c4ccc(F)cc4)nc3C)N(c3ccccc3)C2=O)cc1", "organism": "Aspergillus clavatus", "strain": "MTCC 1323", "measure": "MIC50", "value": "100 µg/mL"}
{"compound": "Cc1ccc(C(C)C)cc1", "organism": "Aspergillus fumigatus", "strain": "F05", "measure": "MLC", "value": ">20 µg/mL"}
{"compound": "O=C1S/C(=C\\c2ccc3ccccc3n2)C(=O)N1CC(O)(Cn1nccn1)c1ccc(F)cc1F", "organism": "Aspergillus glaucus", "measure": "MIC", "value": ">100 µg/mL"}
{"compound": "c1ccc(C2=NN(c3ccccc3)C(c3ccc(OCCCCCOc4ccc(C5CN(c6ccccc6)N=C5c5ccccc5)cc4)cc3)C2)cc1", "organism": "Aspergillus janus", "method": "broth dilution", "measure": "MIC", "value": "8 µg/mL"}
{"compound": "Cc1ccc(S(=O)(=O)CNc2oc3[nH]c(=O)[nH]c(=O)c3c2-c2ccc(F)cc2)cc1", "organism": "Aspergillus oryzae", "method": "agar diffusion / agar", "measure": "zone", "tested at": "50 µg/mL", "value": "18 mm"}